A mixed list of measured activities; the numbers were collected in NIAID ChemDB.

Common to all: whole-cell or culture tests; species: HIV-1; method: cytopathic effect / XTT; measure: fold resistance

Fold resistance has wild type as its base.

SMILES,strain or isolate,mutations,cells,result
O=C1N(Cc2ccc(CO)cc2)[C@H](COc2ccccc2)[C@H](O)[C@@H](O)[C@@H](COc2ccccc2)N1Cc1ccc(CO)cc1,IIIB,PR-I84V L90M,MT-4,2.86
Cc1cn([C@@H]2O[C@H](CO[Si](C)(C)C(C)(C)C)C3(OS(=O)(=O)C=C3N)[C@H]2O[Si](C)(C)C(C)(C)C)c(=O)n(C)c1=O,IIIB,RT-Y181C,CEM,107
Cc1ccnc2c1NC(=O)c1cccnc1N2C1CC1,NL4-3,RT-Y181C,CEM + CEM-SS,65
C/C=C/CSc1cc(NC(=S)c2ccsc2C)ccc1Cl,UC82-R (RT-Y181C),RT-Y181C,CEM + CEM-SS,>33.3
CCc1c(C(=O)c2cc(C)cc(C)c2)n(CC2CC=CC2)c(=O)[nH]c1=O,4xAZT(RT-D67N K70R T215Y K219Q),RT-D67N K70R T215Y K219Q,CEM + CEM-SS,0.3
Cc1cn([C@H]2C[C@H](N=[N+]=[N-])[C@@H](CO)O2)c(=O)[nH]c1=O,IIIB HEPT-resistant (RT P236L),RT-P236L,CEM + CEM-SS,0.3
CCCc1cc(=O)oc2c3c(c4c(c12)OC(C)(C)C=C4)O[C@H](C)[C@@H](C)[C@@H]3O,IIIB HEPT-resistant (IV),RT-P236L,CEM + CEM-SS,2.4
Cc1cn([C@H]2C[C@H](N=[N+]=[N-])[C@@H](CO)O2)c(=O)[nH]c1=O,Site-directed mutant,RT-K65R M184V,MT-2,0.4
O=S1(c2ccccc2)=NC(=S)Nc2ccccc21,IIIB(THZ-R(I)),RT-V108I,CEM + CEM-SS,42
Nc1nc(=O)n([C@@H]2CS[C@H](CO)O2)cc1F,Site-directed mutant,RT-K65R Y115F M184V,MT-2,>210
CCc1c(Sc2ccccn2)n(COCc2ccccc2)c(=O)[nH]c1=O,IIIB(OC-R(I)),RT-L100I,CEM + CEM-SS,15
Cc1cn([C@@H]2O[C@H](CO[Si](C)(C)C(C)(C)C)[C@@]3(OS(=O)(=O)C=C3N)[C@H]2O[Si](C)(C)C(C)(C)C)c(=O)[nH]c1=O,UC10-resistant (RT Y181C K101E),RT-Y181C K101E,CEM + CEM-SS,>200
Fc1cccc(F)c1[C@@H]1SCc2nc3ccccc3n21,IIIB,RT-Y181C,CEM,≥6.25
Cc1cn([C@H]2C[C@H](N=[N+]=[N-])[C@@H](CO)O2)c(=O)[nH]c1=O,NL4-3,RT-L100I,CEM + CEM-SS,1
Cc1cn([C@H]2C[C@H](N=[N+]=[N-])[C@@H](CO)O2)c(=O)[nH]c1=O,IIIB(A17(III)),RT-K103N Y181C,CEM + CEM-SS,0.4
Cc1occc1C(=S)Nc1ccc(Cl)c(/C=N/OC(C)(C)C)c1,NL4-3 (RT V108I),RT-V108I,CEM + CEM-SS,2.5
Fc1cccc(F)c1[C@H]1SCc2nc3ccccc3n21,IIIB,RT-D138K,CEM,1.4
CCc1c(Sc2ccccn2)n(COCc2ccccc2)c(=O)[nH]c1=O,4XAZT+Y181C (RT D67N K70R Y181C T215Y K219Q),RT-D67N K70R Y181C T215Y K219Q,CEM + CEM-SS,17.8

Repeating the final 2 entries:

SMILES	strain or isolate	mutations	cells	result
Fc1cccc(F)c1[C@H]1SCc2nc3ccccc3n21	IIIB	RT-D138K	CEM	1.4
CCc1c(Sc2ccccn2)n(COCc2ccccc2)c(=O)[nH]c1=O	4XAZT+Y181C (RT D67N K70R Y181C T215Y K219Q)	RT-D67N K70R Y181C T215Y K219Q	CEM + CEM-SS	17.8

Lines come from different laboratories, so protocols vary.